These results are taken from PMC11788822, “Uncovering the potent antimicrobial activity of squaramide based anionophores – chloride transport and membrane disruption” (Chemical Science, 2025).

Each structure is given as a SMILES string.

This data set has as its system S. aureus cells. The data set can be described thus: STED nanoscopy of cellular distribution. The data set is classed as cell-based, Staphylococcus aureus. The conditions noted are these: 3 μM, 30 min, fixed cells.

`CCN1C(=O)c2cccc3c(NCCNc4c(NC56CC7CC(CC(C7)C5)C6)c(=O)c4=O)ccc(c23)C1=O` [Compound 7]: the “cellular distribution of fluorescence” value is on record as “membrane accumulation”.
